The subject of this test is HIV-1 clade C (ES-X1936-C). Kind of test: HIV-1 inhibition assay (intracellular p24 in CD4+ cells of PBMC). The format is cell-based. The settings on record: CCR5 tropic virus.

Ends that are not written are not given here.

With “SYSFCPRRQ (also: GS linker and biotinylated lysine, end not given here) [GP3]”, the inhibition of replication result is “exhibited inhibition”.

The values are drawn from patent US10351847B2, “Identification and display of peptide ligands” (OXFORD UNIVERSITY INNOVATION LIMITED, priority 2013, dated 2019).
